# PubChem BioAssay AID1259414, Drosophila RNAi Screening Center | 2018
# Screen: 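Genome-wide screen for host control of endosymbiont load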 (primary screen)
# System: Drosophila JW18 cells infected with Wolbachia
# Reagents: long dsRNA against Drosophila genes, 0.25 µg dsRNA per well of a 384-well plate
# Time to read-out: 5 days
# Challenge: cells persistently infected with Wolbachia before knock-down; no added drug
# Detection: 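Automated imaging of bacterial rRNA staining divided by host cell count, reported as plate-normalised robust z-score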
# Direction: Wolbachia per cell robust z: higher = more Wolbachia per host cell than the plate typical
# Call rule: 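Hit when robust z is 1.5 or more, or -1.5 or less, in at least two of three replicates; excludes dsRNAs with several or no targets, genes not expressed in JW18 and well A1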
# In all, the deposit lists about 24,000 reagents; below is an unselected part of those with a known target gene and a result. Of all reagents, about 1,210 (5%) were called active. 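Inactive calls also include excluded dsRNAs with several or no targets, genes unexpressed in JW18, and well A1, regardless of score.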 A plus sign joins genes that one reagent is predicted to hit.
target,DRSC id,"Wolbachia per cell robust z, rep 1","Wolbachia per cell robust z, rep 2","Wolbachia per cell robust z, rep 3",call
"E(spl)m5-HLH (Enhancer of split m5, helix-loop-helix)",DRSC16695,-2.83,0.525,0.000811,inactive
"E(spl)m5-HLH (Enhancer of split m5, helix-loop-helix)",DRSC28232,0.776,0.521,0.192,inactive
Unc-76 (Uncoordinated 76),DRSC18193,-0.238,-0.165,-0.163,inactive
Unc-76 (Uncoordinated 76),DRSC18560,-0.411,0.403,-5.05,inactive
Det (Deterin),DRSC14489,0.414,1.61,1.6,active
eIF4G1 (eukaryotic translation initiation factor 4G1),DRSC17218,-0.102,-0.75,0.0683,inactive
eIF4G1 (eukaryotic translation initiation factor 4G1),DRSC29786,1.77,1.26,0.675,inactive
Rdh1 (Retinol dehydrogenase 1),DRSC06812,1.15,-0.468,-0.545,inactive
pira (pirate),DRSC19494,-2.94,0.0178,0.754,inactive
CG4970,DRSC02796,0.561,-6.21,-7.41,inactive
sli (slit),DRSC07684,0.683,0.798,0.971,inactive
sli (slit),DRSC22936,-0.581,0.0991,-0.713,inactive
sli (slit),DRSC29578,0.586,0.497,0.17,inactive
ng1 + ng2,DRSC23988,-0.642,-0.118,-0.389,inactive
Rop (Ras opposite),DRSC08693,5.74,5.05,7.9,active
Rop (Ras opposite),DRSC26024,5.35,3.99,8.14,active
Cyp28c1 (Cytochrome P450 28c1),DRSC20236,-0.312,-0.31,-1.32,inactive
CG12679,DRSC20493,-0.282,-1.26,-2.28,inactive
CG12679,DRSC29589,-0.0798,-1.36,-0.573,inactive
mu2 (mutator 2),DRSC08726,0.0641,1.67,0.466,inactive
mu2 (mutator 2),DRSC21534,-0.457,-1.06,-1.39,inactive
CG31313,DRSC13044,0.783,0.678,0.437,inactive
Egfr (Epidermal growth factor receptor),DRSC03871,-2.19,-1.17,-1.18,inactive
Egfr (Epidermal growth factor receptor),DRSC04613,-2.89,-0.468,0.965,inactive
Egfr (Epidermal growth factor receptor),DRSC40666,0.533,-0.389,-0.169,inactive
MED20 (Mediator complex subunit 20),DRSC03463,-2.33,0.0532,0.0625,inactive
BomBc1 (Bomanin Bicipital 1),DRSC06501,0.491,0.0225,0.115,inactive
BomBc1 (Bomanin Bicipital 1),DRSC23723,-1.48,-0.842,-1.31,inactive
bgm (bubblegum),DRSC03495,1.65,2.57,0.205,inactive
bgm (bubblegum),DRSC27103,-7.37,-9.05,1.25,inactive
"SmydA-4 (SET and MYND domain containing, arthropod-specific, member 4)",DRSC19390,-1.28,0.348,-1.87,inactive
"SmydA-4 (SET and MYND domain containing, arthropod-specific, member 4)",DRSC21866,-2.68,0.376,0.523,inactive
"SmydA-4 (SET and MYND domain containing, arthropod-specific, member 4)",DRSC26517,0.534,0.143,0.645,inactive
nerfin-1 (nervous fingers 1),DRSC08729,-0.408,-0.715,-0.255,inactive
Tg (Transglutaminase),DRSC03047,0.315,-0.269,0.273,inactive
Tg (Transglutaminase),DRSC29048,1.23,1.05,1.8,inactive
RpL31 (Ribosomal protein L31),DRSC06716,1.42,1.34,1.26,inactive
RpL31 (Ribosomal protein L31),DRSC29618,0.781,1.88,2.54,active
lds (lodestar),DRSC16988,-0.131,-1.42,-0.099,inactive
asp (abnormal spindle),DRSC16903,-1.13,-1.13,-7.99,inactive
CG42340,DRSC17458,-0.467,0.645,0.414,inactive
CG42340,DRSC17841,-0.446,-2.33,-2.71,inactive
CG42340,DRSC18305,-0.35,0.292,0.339,inactive
CG42340,DRSC21619,-0.0908,0.218,-1.52,inactive
CG42340,DRSC23657,0.724,2.35,0.367,inactive
Coq2 (Coenzyme Q biosynthesis protein 2),DRSC16516,1.23,-0.202,-0.199,inactive
Coq2 (Coenzyme Q biosynthesis protein 2),DRSC21366,1.25,0.457,-1.07,inactive
Coq2 (Coenzyme Q biosynthesis protein 2),DRSC29659,-1.11,0.267,0.795,inactive
CG5056,DRSC02808,-0.00387,0.434,-0.553,inactive
Doc1 (Dorsocross1),DRSC11146,-0.695,-1.03,0.063,inactive
Doc1 (Dorsocross1),DRSC25859,0.826,0.126,1.41,inactive
Ripalpha (RPA-interacting protein alpha),DRSC02657,0.338,-0.859,-0.537,inactive
Cog1 (Component of oligomeric golgi complex 1),DRSC15661,-2.34,-0.188,-1.77,active
Psf3 (Partner of Sld Five 3),DRSC18216,-0.679,-0.903,-1.04,inactive
Psf3 (Partner of Sld Five 3),DRSC21487,0.0296,-1.16,0.204,inactive
CG14502,DRSC06473,1.08,-1.23,-0.0762,inactive
Gr22d (Gustatory receptor 22d),DRSC21653,1.35,-0.334,1.43,inactive
Gr22d (Gustatory receptor 22d),DRSC25985,-0.517,0.235,-1.59,inactive
Tpt (tRNA 2'-phosphotransferase),DRSC27217,0.462,0.138,0.19,inactive
CG34193,DRSC38866,0.543,-0.566,0.611,inactive
ics (icarus),DRSC01878,-0.532,-0.136,-1.72,inactive
ics (icarus),DRSC29655,0.12,0.352,-0.232,inactive
CG17985,DRSC06702,-0.319,0.129,0.324,inactive
CG8026,DRSC07055,0.359,0.225,-0.128,inactive
CG8026,DRSC07056,0.901,-0.231,0.675,inactive
Ugt317A1 (UDP-glycosyltransferase family 317 member A1),DRSC04470,0.611,-0.998,0.331,inactive
CG31752,DRSC22599,-2.57,-0.453,0.65,inactive
CG1927,DRSC08146,0.259,0.928,1.5,inactive

11 entries already listed, ordered by “Wolbachia per cell robust z, rep 1”, ascending:
target,DRSC id,"Wolbachia per cell robust z, rep 1","Wolbachia per cell robust z, rep 2","Wolbachia per cell robust z, rep 3",call
Coq2 (Coenzyme Q biosynthesis protein 2),DRSC29659,-1.11,0.267,0.795,inactive
Doc1 (Dorsocross1),DRSC11146,-0.695,-1.03,0.063,inactive
CG42340,DRSC17458,-0.467,0.645,0.414,inactive
CG42340,DRSC17841,-0.446,-2.33,-2.71,inactive
CG42340,DRSC18305,-0.35,0.292,0.339,inactive
CG42340,DRSC21619,-0.0908,0.218,-1.52,inactive
CG5056,DRSC02808,-0.00387,0.434,-0.553,inactive
CG42340,DRSC23657,0.724,2.35,0.367,inactive
Doc1 (Dorsocross1),DRSC25859,0.826,0.126,1.41,inactive
Coq2 (Coenzyme Q biosynthesis protein 2),DRSC16516,1.23,-0.202,-0.199,inactive
Coq2 (Coenzyme Q biosynthesis protein 2),DRSC21366,1.25,0.457,-1.07,inactive
